Compound potency records, mixed from different reports. Data source: NIAID ChemDB in PubChem.

Common to all: tests in culture; agent: Aspergillus fumigatus

A number after MIC or MFC names an inhibition level or a share of isolates. Lines come from different laboratories, so protocols vary. Inhibition is in % at the dose shown (toxicity tests: loss of growth or viability). Zones are inhibition diameters on agar. Blank or dashed fields: not listed here. ECn: concentration that inhibits the pathogen or its effect by n%.

SMILES,strain or isolate,changes,read by,conditions,endpoint,dose,result
COc1ccc(CCn2cnc3ccccc3c2=O)cc1OC,RCMB 002003,,agar diffusion / agar,,zone,10 mg/mL,9.4 mm
Cc1ccc(C(F)(F)C(F)(F)c2ccc(C(C)(C)N)cc2)cc1,MF5668,,,,MIC100,,16 µg/mL
Cc1ccc2nc(F)c(C3C(C#N)=C(N)N(c4nc(-c5ccc(Cl)cc5)cs4)C4=C3C(=O)CCC4)cc2c1,MTCC 3008,,broth dilution,,MIC,,1000 µg/mL
CNCC(=O)Nc1ccc(-c2ccc(OCC(O)(Cn3cncn3)c3ccc(F)cc3F)cc2)cn1,,,broth dilution,,MIC80,,>64 µg/mL
CCC(C)n1ncn(-c2ccc(N3CCN(c4ccc(OC[C@H]5CO[C@](Cn6cncn6)(c6ccc(Cl)cc6Cl)O5)cc4)CC3)cc2)c1=O,,TR46 azole-resistant,broth dilution,,MIC50,,>16 µg/mL
CCCSc1ccc2nc(NC(=O)OC)[nH]c2c1,27 isolates,,,,Geometric mean MIC,,0.74 µg/mL
OC(Cn1cncn1)(Cn1cncn1)c1ccc(F)cc1F,NFI 4001,,,,MFC,,>128 µg/mL
CN(C/C=C/C#CC(C)(C)C)Cc1cccc2ccccc12,,,broth dilution,clinical isolate,MIC80,,3.44 µM
CCC(C)n1ncn(-c2ccc(N3CCN(c4ccc(OC[C@H]5CO[C@](Cn6cncn6)(c6ccc(Cl)cc6Cl)O5)cc4)CC3)cc2)c1=O,,,broth dilution,,MIC80,,>64 µg/mL
Cc1cc(O)cc2c(=O)oc(C[C@@H](C)O)cc12,CGMCC 3.5835,,resazurin,,EC50,,>250 µM
CN(C/C=C/C#CC(C)(C)C)Cc1cccc2ccccc12,ATCC 26934,,broth dilution,,MIC100,,0.78 µg/mL
COc1cc(-n2cnc3ccccc3c2=O)cc(OC)c1OC,RCMB 002003,,agar diffusion / agar,,zone,10 mg/mL,11.3 mm
COc1cc2occc2c2oc(-c3ccccc3)cc(=O)c12,,,agar diffusion,,zone,50 µg/disc,16.5 mm
O=C(/C=C/c1ccc(F)cc1)Nc1ccc(-n2cnn(CC(O)(Cn3cncn3)c3ccc(F)cc3F)c2=O)cc1,,,broth dilution,,MIC80,,>40 µg/mL
N#CC(C#N)C(CC(=O)c1ccccc1)c1ccc2ccccc2c1,ATCC 26934,,,,MIC,,>50 µg/mL
C[N+]1=CC2C(=O)c3nccc4ccnc(c34)C2C1,,,,,MIC80,,>64 µg/mL
COc1cccc(/C=C/C(=O)c2ccc(Br)cc2)c1,ATCC 26934,,,,MIC,,>50 µg/mL
O=C/C=C/c1ccccc1,MTCC 2550,,broth dilution,,MFC,,160 µg/mL
CN(C)C1=NC(=O)/C(=C/c2ccccc2)S1,ATCC 26934,,broth dilution,,MIC100,,>250 µg/mL
COc1ccc2nc(F)c(C3C(C#N)=C(N)N(c4nc(-c5ccc(O)cc5)cs4)C4=C3C(=O)CCC4)cc2c1,MTCC 3008,,broth dilution,,MIC,,>1000 µg/mL
COc1cc(O)c2c(c1)C1=C[C@H](O)[C@@H](O)C[C@]1(C)OC2=O,CGMCC 3.5835,,resazurin,,EC50,,>250 µM
O=S(=O)(O)CCNCl,ATCC 26933,,,,MIC90,,16 µM
O=c1cc(-c2ccccc2)oc2c1c(O)cc1occc12,,,agar diffusion,,zone,50 µg/disc,9.5 mm
CC1(C)CCC[C@]2(C)[C@H]3C=C4C(=CC(=O)C(O)=C4Cl)O[C@@]3(C)CC[C@@H]12,ATCC 90906,,,,inhibition,20 µg/mL,0%
Clc1ccccc1C(c1ccccc1)(c1ccccc1)n1ccnc1,RCMB 002003,,agar diffusion / agar,,zone,10 mg/mL,18.3 mm
C[C@H]1[C@H](O)[C@@H](C)/C=C/C=C/C=C/C=C/C=C/C=C/C=C/[C@H](O[C@@H]2O[C@H](C)[C@@H](O)[C@H](N)[C@@H]2O)C[C@@H]2O[C@](O)(C[C@@H](O)C[C@@H](O)CC[C@H](O)[C@@H](O)C[C@@H](O)CC(=O)O[C@H]1C)C[C@H](O)[C@H]2C(=O)O,W73355,,agar,,inhibition,16 µg/mL,100%
COc1cccc(C(=O)/C=C/c2cc3ccccc3cc2OC)c1,ATCC 26934,,,,MIC,,>50 µg/mL
CCOC(=O)C1=C(N)N(c2nc(-c3ccccc3O)cs2)C2=C(C(=O)CCC2)C1c1cc2cc(OC)ccc2nc1F,MTCC 3008,,broth dilution,,MIC,,100 µg/mL
COc1ccc(/C=C/C(=O)c2ccccc2)cc1OC,ATCC 26934,,,,MIC,,>50 µg/mL
COc1cc(O)c2c(c1)C1=C[C@@H](O)[C@H](O)C[C@]1(C)OC2=O,CGMCC 3.5835,,resazurin,,EC50,,>250 µM
C[C@@H]1[C@H](O)[C@@H](C)/C=C/C=C/CC/C=C/C=C/C=C/C=C/C(O[C@H]2O[C@H](C)[C@@H](O)[C@H](N)[C@@H]2O)CC2O[C@](O)(CC(O)C(O)CCC(O)CC(O)CC(O)CC(=O)O[C@H]1C)CC(O)C2C(=O)O,,,agar diffusion,,zone,50 µg/disc,21 mm
CN(C/C=C/C#CC(C)(C)C)Cc1cccc2ccccc12,60 isolates,,,,Geometric mean MIC,,19.03 µg/mL
O=C(/C=C/c1ccc(Cl)cc1Cl)c1ccccc1,ATCC 26934,,,,MIC,,>50 µg/mL
O=c1c2ccccc2nc(-c2ccc(Cl)cc2)n1Cc1ccccc1,RCMB 002003,,agar diffusion / agar,,zone,10 mg/mL,18.3 mm
COc1ccc(C(=O)/C=C/c2cc3cc(OC)c(OC)cc3nc2Cl)cc1OC,ATCC 26934,,,,MIC,,>50 µg/mL
COc1ccc(/C=C2\SC(N(C)C)=NC2=O)cc1,ATCC 26934,,broth dilution,,MIC100,,>250 µg/mL

Repeating the first 5 entries:

COc1ccc(CCn2cnc3ccccc3c2=O)cc1OC ; strain or isolate: RCMB 002003 ; read by: agar diffusion / agar ; endpoint: zone ; dose: 10 mg/mL ; result: 9.4 mm
Cc1ccc(C(F)(F)C(F)(F)c2ccc(C(C)(C)N)cc2)cc1 ; strain or isolate: MF5668 ; endpoint: MIC100 ; result: 16 µg/mL
Cc1ccc2nc(F)c(C3C(C#N)=C(N)N(c4nc(-c5ccc(Cl)cc5)cs4)C4=C3C(=O)CCC4)cc2c1 ; strain or isolate: MTCC 3008 ; read by: broth dilution ; endpoint: MIC ; result: 1000 µg/mL
CNCC(=O)Nc1ccc(-c2ccc(OCC(O)(Cn3cncn3)c3ccc(F)cc3F)cc2)cn1 ; read by: broth dilution ; endpoint: MIC80 ; result: >64 µg/mL
CCC(C)n1ncn(-c2ccc(N3CCN(c4ccc(OC[C@H]5CO[C@](Cn6cncn6)(c6ccc(Cl)cc6Cl)O5)cc4)CC3)cc2)c1=O ; changes: TR46 azole-resistant ; read by: broth dilution ; endpoint: MIC50 ; result: >16 µg/mL